Anti-infective test results gathered from many reports (values: NIAID ChemDB through PubChem).

All rows: toxicity to cultured cells; cell line: MT-4; endpoint: CC50

Blank or dashed fields: not listed here. CCn is the concentration with n% toxicity to the cells. Neighbouring rows are from separate reports.

SMILES	read by	value
COc1ccccc1N1CCN(c2c(F)cc3c(=O)c(C(=O)O)cn(C)c3c2OC(F)F)CC1		6.489 µg/mL
CCCc1c(Cc2cc(C)cc(C)c2)n(COC2C=CCCC2)c(=O)[nH]c1=O	MTT	28 µM
N#C/C(=C\c1ccc(F)cc1)n1nc2ccccc2n1		>100 µM
CCOC(=O)c1cn(CC(O)CNc2ccc(C)cc2)cc1-c1ccccc1		>200 µM
CNc1ncnc2c1ncn2[C@@H]1O[C@H](CO)C[C@@H]1N=[N+]=[N-]		106.9 µg/mL
CCCc1c(Cc2cc(C)cc(C)c2)n(COC/C(C)=C/c2ccccc2)c(=O)[nH]c1=O	MTT	28 µM
N#C/C(=C\c1cccc([N+](=O)[O-])c1)n1nnc2ccccc21		0.4 µM
Fc1ccc(NC(=S)NC2CCN(Cc3ccccc3)CC2)cc1	MTT	34 µM
COc1cc2nc(S(=O)CC(=O)Nc3cccc(C(F)(F)F)c3)nc(Nc3c(Cl)cc(/C=C/C#N)cc3Cl)c2cc1OC	MTT	21.8 µM
N#C/C(=C\c1cc(Cl)cc(Cl)c1)n1nnc2ccccc21		2 µM
CC(C)CCC[C@@H](C)[C@H]1CC[C@H]2[C@@H]3[C@@H](O)C=C4C[C@@H](O)CC[C@]4(C)[C@H]3CC[C@]12C		23 µM
Cc1ccc(Cl)cc1NC(=S)NC1CCN(Cc2ccccc2)CC1	MTT	37 µM
Cc1cc(F)cc(-c2cc(-c3nccc4c3CNC4=O)nn2-c2ccc(F)c(Cl)c2)c1	resazurin	>3.3 µM
Cc1c(Sc2ccccc2)n(C/C=C/c2ccccc2)c(=O)[nH]c1=O		>1 µM
COc1ccccc1N1CCN(c2c(F)cc3c(=O)c(C(=O)O)cn(CCF)c3c2OC(F)F)CC1		5.53 µg/mL
COc1cc2nc(S(=O)CC(=O)Nc3ccc([N+](=O)[O-])cc3)nc(Nc3c(C)cc(/C=C/C#N)cc3C)c2cc1OC	MTT	189 µM
O=C(O)c1cn(C2CC2)c2c(OC(F)F)c(N3CCN(c4nc5ccccc5o4)CC3)c(F)cc2c1=O		0.592 µg/mL
N#C/C(=C\c1ccc(F)cc1F)n1nnc2ccccc21		38 µM
S=C(Nc1ccc(Cl)c(Cl)c1)NC1CCN(Cc2ccccc2)CC1	MTT	7.3 µM
CCc1c(Cc2cccc3ccccc23)n(COCc2ccccc2)c(=O)[nH]c1=O		32.56 µM
Cc1cc(=O)oc2c3c(c4c(c12)OC(C)(C)C=C4)OC(C)(C)C=C3	MTT	34 µM
CCOC(=O)c1cc2c3cccc(N)c3c3ccc(OC)cc3n2c1C		>200 µM
Fc1ccccc1NC(=S)NC1CCN(Cc2ccccc2)CC1	MTT	95 µM
CCCc1c(Cc2cccc3ccccc23)n(COC)c(=O)[nH]c1=O		188 µM
COc1cc(/C(C)=N/Nc2nc(-c3ccc(Cl)cc3)cs2)cc(OC)c1OC	MTT	16.39 µM
CCCc1c(Cc2ccccc2)n(COC/C(C)=C/c2ccccc2)c(=O)[nH]c1=O	MTT	30 µM
O=C1NCc2c1ccnc2-c1cc(-c2cccc(F)c2F)n(-c2ccc(F)c(Cl)c2)n1	resazurin	>3.3 µM
COc1cc2nc(S(=O)CC(=O)Nc3ccccc3C#N)nc(Nc3c(Cl)cc(/C=C/C#N)cc3Cl)c2cc1OC	MTT	>206 µM
CCOC(=O)c1cc(-c2cccc(OC)c2)n(-c2cccc(Br)c2)c1C		10 µM
CC1COc2c(N3CCN(c4ccccn4)CC3)c(F)cc3c(=O)c(C(=O)O)cn1c23		17 µg/mL
C/C=C1/C(=O)NC(=O)N1[C@H]1C[C@H](N=[N+]=[N-])[C@@H](CO)O1		~100 µM
COc1cc2nc(S(=O)CC(=O)Nc3ccc([N+](=O)[O-])cc3)nc(Nc3c(Cl)cc(/C=C/C#N)cc3Cl)c2cc1OC	MTT	>92.8 µM
S=C(NCc1ccco1)Nc1ccc(I)cc1	MTT	36.5 µM
CCOCn1c(Cc2ccc3ccccc3c2)c(C)c(=O)[nH]c1=O		158 µM
COC(=O)c1ccccc1NCC(O)Cn1c(C(=O)NC(C)(C)C)cc2ccccc21		39 µM
C(=N\Nc1nc(-c2ccccc2)cs1)/c1ccccn1	MTT	2.97 µM
Cc1c(Sc2ccccc2)n(C/C=C/c2cc3ccccc3o2)c(=O)[nH]c1=O		>1 µM
NC(=O)/C(=C\c1ccc(C(F)(F)F)cc1)n1nnc2ccccc21		4 µM
O=C1NCc2c1ccnc2-c1cc(-c2cc(F)cc(OC(F)F)c2)n(-c2cccnc2)n1	resazurin	>3.3 µM
S=C(Nc1cccc(Br)c1)NC1CCN(Cc2ccccc2)CC1	MTT	14.6 µM
Cc1cn([C@H]2C[C@H](n3cc([N+](=O)[O-])nc3C)[C@@H](CO)O2)c(=O)[nH]c1=O		70 µM
N#Cc1cc(-n2nc(-c3nccc4c3CNC4=O)cc2-c2cc(F)cc(Cl)c2)ccc1F	resazurin	>3.3 µM
CCOC(=O)c1ccn(CC(O)CNc2ccccc2)c1		>200 µM
CC(C)(C)[Si](OC[C@H]1OC(N2C(=O)NC(=O)/C2=C/c2ccccc2)C[C@@H]1N=[N+]=[N-])(c1ccccc1)c1ccccc1		~100 µM
CCc1c(Cc2ccc3ccccc3c2)n(COCCO)c(=O)[nH]c1=O		182 µM
CC(C)(C)NC(=O)c1ccccc1SCC(O)Cn1cc(C(=O)NC(C)(C)C)c(-c2ccccc2)c1		101 µM
O=C1NCc2c1ccnc2-c1cc(-c2cc(F)cc(OC(F)(F)F)c2)n(-c2cccnc2)n1	resazurin	>3.3 µM
CC(C)c1c(Cc2cccc3ccccc23)n(COCCO)c(=O)[nH]c1=O		53.2 µM
COc1cccc(-n2nc(-c3nccc4c3CNC4=O)cc2-c2ccnc(Cl)c2)c1	resazurin	>3.3 µM
FC(F)(F)c1cccc(NC(=S)NC2CCN(Cc3ccccc3)CC2)c1	MTT	26 µM
CCOC(=O)c1cc(-c2cccc(OC)c2)n(-c2cccc(N)c2)c1C		7.2 µM
O=C(O)/C(=C\c1ccccc1)n1nnc2ccccc21		>100 µM
S=C(Nc1cccc(Cl)c1)NC1CCN(Cc2ccccc2)CC1	MTT	28 µM
CN(C)c1ncnc2c1ncn2[C@@H]1O[C@H](CO)C[C@@H]1N=[N+]=[N-]		115.1 µg/mL
O=C1NCc2c1ccnc2-c1cc(-c2cc(F)cc(OC(F)(F)F)c2)n(-c2ccc(F)c(Cl)c2)n1	resazurin	>3.3 µM
CC(C)(C)NC(=O)c1ccccc1NCC(O)Cn1cc(C(=O)NC(C)(C)C)c(-c2ccccc2)c1		101 µM
Clc1ccc(-c2csc(N/N=C/c3ccncc3)n2)cc1	MTT	125 µM
CC(C)(C)n1cc(C(=O)O)c(=O)c2cc(F)c(N3CCN(c4ncccn4)CC3)cc21		>24.8 µg/mL
C/C(=N\Nc1nc(-c2ccc([N+](=O)[O-])cc2)cs1)c1ccc(-n2ccnc2)cc1	MTT	38.9 µM
S=C(NCc1ccco1)Nc1ccc(Cl)cc1	MTT	36.7 µM
Cc1c(Sc2ccccc2)n(COCCNC(=O)CNCP(=O)(O)O)c(=O)[nH]c1=O		>1 µM
CCc1c(Cc2cc(C)cc(C)c2)n(COC/C(C)=C/c2ccccc2)c(=O)[nH]c1=O	MTT	30 µM
N#Cc1cccc(-c2cc(-c3cccc4c3CNC4=O)nn2-c2ccc(F)cc2)c1	resazurin	>3.3 µM
CCc1c(Sc2ccccc2)n(C/C=C/c2ccco2)c(=O)[nH]c1=O		>1 µM
CC(=O)c1cc(-c2cccc([N+](=O)[O-])c2)n(-c2ccccc2)c1C		>300 µM

Again, the opening 7 rows:

{"SMILES": "COc1ccccc1N1CCN(c2c(F)cc3c(=O)c(C(=O)O)cn(C)c3c2OC(F)F)CC1", "value": "6.489 µg/mL"}
{"SMILES": "CCCc1c(Cc2cc(C)cc(C)c2)n(COC2C=CCCC2)c(=O)[nH]c1=O", "read by": "MTT", "value": "28 µM"}
{"SMILES": "N#C/C(=C\\c1ccc(F)cc1)n1nc2ccccc2n1", "value": ">100 µM"}
{"SMILES": "CCOC(=O)c1cn(CC(O)CNc2ccc(C)cc2)cc1-c1ccccc1", "value": ">200 µM"}
{"SMILES": "CNc1ncnc2c1ncn2[C@@H]1O[C@H](CO)C[C@@H]1N=[N+]=[N-]", "value": "106.9 µg/mL"}
{"SMILES": "CCCc1c(Cc2cc(C)cc(C)c2)n(COC/C(C)=C/c2ccccc2)c(=O)[nH]c1=O", "read by": "MTT", "value": "28 µM"}
{"SMILES": "N#C/C(=C\\c1cccc([N+](=O)[O-])c1)n1nnc2ccccc21", "value": "0.4 µM"}